# Reference: patent US20190113512A1 (MIT, published 2019)
# T1: H1BA (Mycobacterium tuberculosis)
# T1 chain: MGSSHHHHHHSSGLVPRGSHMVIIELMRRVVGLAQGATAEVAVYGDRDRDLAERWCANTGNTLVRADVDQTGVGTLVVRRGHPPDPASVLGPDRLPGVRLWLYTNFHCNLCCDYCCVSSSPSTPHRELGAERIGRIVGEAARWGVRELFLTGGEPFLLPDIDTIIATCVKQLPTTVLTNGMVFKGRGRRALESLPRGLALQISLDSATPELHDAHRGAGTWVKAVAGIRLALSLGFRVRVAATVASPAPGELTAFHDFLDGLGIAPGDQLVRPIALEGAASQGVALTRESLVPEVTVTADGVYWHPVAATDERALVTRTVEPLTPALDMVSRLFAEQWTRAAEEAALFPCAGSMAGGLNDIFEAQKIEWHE
# T2: H1-bx (Mycobacterium tuberculosis)
# T2 chain: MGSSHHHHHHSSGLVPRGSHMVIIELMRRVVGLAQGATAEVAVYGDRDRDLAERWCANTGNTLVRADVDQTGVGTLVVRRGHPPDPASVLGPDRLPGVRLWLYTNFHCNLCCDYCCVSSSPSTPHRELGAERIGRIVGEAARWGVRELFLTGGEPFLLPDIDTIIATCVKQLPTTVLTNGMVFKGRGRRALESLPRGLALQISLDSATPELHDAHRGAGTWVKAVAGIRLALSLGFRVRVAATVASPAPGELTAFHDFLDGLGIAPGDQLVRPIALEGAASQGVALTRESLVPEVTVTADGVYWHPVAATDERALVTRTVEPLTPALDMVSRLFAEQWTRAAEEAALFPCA
# T3: H6BA (Mycobacterium tuberculosis)
# T3 chain: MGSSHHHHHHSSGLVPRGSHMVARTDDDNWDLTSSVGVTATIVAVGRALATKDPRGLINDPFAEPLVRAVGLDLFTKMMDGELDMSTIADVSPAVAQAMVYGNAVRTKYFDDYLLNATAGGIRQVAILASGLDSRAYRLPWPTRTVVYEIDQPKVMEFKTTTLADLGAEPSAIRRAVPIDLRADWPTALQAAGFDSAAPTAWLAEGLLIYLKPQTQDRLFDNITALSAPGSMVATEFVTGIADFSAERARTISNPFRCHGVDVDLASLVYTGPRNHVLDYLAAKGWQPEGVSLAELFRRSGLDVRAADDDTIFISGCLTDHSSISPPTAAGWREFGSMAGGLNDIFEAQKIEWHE
# T4: biotinylated recombinant Rv1656 (Mycobacterium tuberculosis)
# T4 chain: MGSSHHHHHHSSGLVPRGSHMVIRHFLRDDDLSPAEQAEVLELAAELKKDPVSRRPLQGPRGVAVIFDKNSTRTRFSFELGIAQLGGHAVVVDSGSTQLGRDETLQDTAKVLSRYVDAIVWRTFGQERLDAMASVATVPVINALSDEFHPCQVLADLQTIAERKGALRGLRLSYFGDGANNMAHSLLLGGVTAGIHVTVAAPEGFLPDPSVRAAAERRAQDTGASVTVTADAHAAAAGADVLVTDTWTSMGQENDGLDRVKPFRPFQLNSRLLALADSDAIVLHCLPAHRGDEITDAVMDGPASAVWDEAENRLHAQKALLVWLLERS
# T5: H2BA (Mycobacterium tuberculosis)
# T5 chain: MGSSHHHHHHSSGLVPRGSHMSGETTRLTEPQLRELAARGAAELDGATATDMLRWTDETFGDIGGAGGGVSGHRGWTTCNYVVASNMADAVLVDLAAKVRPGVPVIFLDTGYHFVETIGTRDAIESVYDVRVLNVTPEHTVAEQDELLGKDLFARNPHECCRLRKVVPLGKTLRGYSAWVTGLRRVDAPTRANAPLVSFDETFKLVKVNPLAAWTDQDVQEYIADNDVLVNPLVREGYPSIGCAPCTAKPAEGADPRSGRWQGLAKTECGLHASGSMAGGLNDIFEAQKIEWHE
# T6: H7BA (Mycobacterium tuberculosis)
# T6 chain: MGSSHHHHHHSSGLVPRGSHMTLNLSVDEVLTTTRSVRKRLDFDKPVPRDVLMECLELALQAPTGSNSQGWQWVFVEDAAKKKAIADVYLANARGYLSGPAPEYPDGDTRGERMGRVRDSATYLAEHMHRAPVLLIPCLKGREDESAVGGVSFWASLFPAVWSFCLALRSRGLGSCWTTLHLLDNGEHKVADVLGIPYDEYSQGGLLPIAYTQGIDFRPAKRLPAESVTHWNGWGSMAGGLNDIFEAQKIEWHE
# B1: rcSso7d.H1BA.1 (designed binder)
# chain: MATVKFTYQGEEKQVDISKIKHVRRWGQYIIFAYDEGGGAYGGGWVSEKDAPKELLQMLEKQ
# notes: also called 1.4.1
# B2: rcSso7d.H1BA.3 (designed binder)
# chain: B1 chain with R24I, W26N
# notes: also called 1.E2.2
# B3: rcSso7d.H1BA.5 (designed binder)
# chain: B1 chain with H22Y, W26Y, I31G, A33I, Y41W, G43K, W45Y
# notes: also called 1.E2.4
# B4: rcSso7d.H6BA.2 (designed binder)
# chain: B1 chain with H22W, R24Y, Y41A, G43K, W45S
# notes: also called 6.PF2.4
# B5: rcSso7d.H6BA.3 (designed binder)
# chain: B1 chain with H22R, R24I, W26A, Y29S, A33S, Y41I, G43H
# notes: also called 6.PF2.5
# B6: rcSso7d.H6BA.1 (designed binder)
# chain: B1 chain with H22W, R24Y, W26Y, A33G, Y41K, G43N, W45Y
# notes: also called 6.PF2.2
# B7: rcSso7d.Rv1656 (yeast-surface displayed) (designed binder)
# chain: B1 chain with H22W, W26Y, I31G, A33S, Y41W, G43K, W45Y
# notes: also called rcSso7d.H4.2; H4.2
# B8: rcSso7d.H1BA.4 (designed binder)
# chain: B1 chain with H22N, R24Y, A33S, G43W
# notes: also called 1.E2.3
# B9: rcSso7d.H2BA.1 (designed binder)
# chain: B1 chain with H22R, R24I, W26Y, Y29A, I31A, Y41R, G43Y
# notes: also called H2BA.PF5.1
# B10: rcSso7d.H7.1 (designed binder)
# chain: MATVKFTYQGEEKQVDISKIKYVYRWGQRIWFRYDEGGGAIGRGRVSEKDAPKELLQMLEKQ
# notes: also called 7.B10
# B11: rcSso7d.H1BA.6 (designed binder)
# chain: B10 chain with Y22D, Y24W, R29W, W31D, R33I, I41D, R43W
# notes: also called H1BA.PF5.1
# B12: rcSso7d.H4.4 (designed binder)
# chain: MATVKFTYQGEEKQVDISKIKSVKRNGQSIDFDYDEGGGAAGEGKVSEKDAPKELLQMLEKQ
# notes: also called P4-12; C3
# B13: rcSso7d.H4.6 (designed binder)
# chain: B12 chain with K24H, N26Y, S29K, D31Y, A41I, E43K, K45H
# notes: also called P5-4; C6
# B14: rcSso7d.H4.3 (designed binder)
# chain: MATVKFTYQGEEKQVDISKIKHVWRRGQNIYFRYDEGGGAWGAGAVSEKDAPKELLQMLEKQ
# notes: also called P4-10; C2
# B15: rcSso7d.H4.7 (designed binder)
# chain: B14 chain with H22Y, R26H, N29H, Y31A, W41H, A43W, A45S
# notes: also called P5-5; C7
# B16: rcSso7d.H4.5 (designed binder)
# chain: B10 chain with Y22G, W26H, R29S, I41W, R43W, R45I
# notes: also called P4-17; C5
# B17: rcSso7d.H4.8 (designed binder)
# chain: B1 chain with H22D, R24W, W26H, Y29H, A33S, G43A, W45H
# notes: also called P5-8; C8
# B18: rcSso7d.H4.9 (designed binder)
# chain: MATVKFTYQGEEKQVDISKIKYVKRIGQYISFNYDEGGGAHGHGIVSEKDAPKELLQMLEKQ
# notes: also called P5-10; C9
# Legend:
# H1BA [1] = molecular target: T1, H1BA; experiment: yeast-surface display flow cytometry, 100 nM antigen in 0.1% BSA/PBS
# H1-bx = molecular target: T2, H1-bx; experiment: as above
# H6BA [2] = molecular target: T3, H6BA; experiment: as above
# [3] = molecular target: T4, biotinylated recombinant Rv1656
# H4 = H4 (Mycobacterium tuberculosis, UniProt A1KJ73 2-307); experiment: yeast-surface display flow cytometry, 100 nM antigen in 0.1% BSA/PBS
# H1BA [4] = molecular target: T1, H1BA; experiment: yeast-surface display flow cytometry, 100 nM analyte, geometric MFI
# H2BA [5] = molecular target: T5, H2BA; experiment: as above
# H6BA [6] = molecular target: T3, H6BA; experiment: as above
# H7BA [7] = molecular target: T6, H7BA; experiment: as above
# H2BA [8] = molecular target: T5, H2BA; experiment: yeast-surface display flow cytometry, 100 nM antigen in 0.1% BSA/PBS
# H7BA [9] = molecular target: T6, H7BA; experiment: yeast-surface display flow cytometry, 0.1% BSA/PBS, heat, urine
binder,measurement,setting,value
B1,Baseline binding (% positive),H1BA [1],77.6%
B2,Geometric MFI (baseline binding),H1-bx,1400
B3,Baseline binding (% positive),H1BA [1],32.5%
B4,Baseline binding (% positive),H6BA [2],19.5%
B5,Baseline binding (% positive),H6BA [2],58.5%
B6,Baseline binding (% positive),H6BA [2],31.4%
B7,EC50 (read off the curve),[3],~10 nM
same,Baseline binding (% positive),H4,60.4%
same,binding result,H1BA [4],no binding (tested: 100 nM)
same,binding result,H2BA [5],no binding (tested: 100 nM)
same,binding result,H6BA [6],no binding (tested: 100 nM)
same,binding result,H7BA [7],no binding (tested: 100 nM)
B8,Baseline binding (% positive),H1-bx,31.4%
B9,Baseline binding (% positive),H2BA [8],55.1%
same,Geometric MFI (baseline binding),H2BA [8],474
B10,binding result,H7BA [9],binds
B11,Baseline binding (% positive),H1BA [1],70.4%
same,Geometric MFI (baseline binding),H1BA [1],1920
B12,Baseline binding (% positive),H4,7.8%
B13,Baseline binding (% positive),H4,15.3%
B14,Baseline binding (% positive),H4,25.8%
B15,Baseline binding (% positive),H4,13.4%
B16,Baseline binding (% positive),H4,30.8%
B17,Baseline binding (% positive),H4,3.5%
B18,Baseline binding (% positive),H4,19.6%

# Positions count from the first letter of the chain named.
